From publication PMC6271143, “Novel Triphenylantimony(V) and Triphenylbismuth(V) Complexes with Benzoic Acid Derivatives: Structural Characterization, in Vitro Antileishmanial and Antibacterial Activities and Cytotoxicity against Macrophages” (Molecules, 2014)

Experiments:
[1] = test system: Staphyloccocus aureus (ATCC 6538); assay: Minimum inhibitory concentration, broth dilution (NCCLS M7-A6), S. aureus; assay type: cell-based, Staphylococcus aureus; conditions: as printed in footnote d
Procedure: Antimicrobial activity tests were performed in a quantitative way by determining the minimum inhibitory concentration (MIC) by the standard method for in vitro anti-bacterial susceptibility testing proposed by the National Committee for Clinical Laboratory Standards [NCCLS M7-A6] [56]. Sthaphyloccocus aureus [ATCC6538] and Pseudomonas aeruginosa [ATCC27853] stored in Müller–Hilton broth were sub-cultured for testing in the same medium and incubated for 24 h, respectively, at 37 °C. The bacterial cells of the two strains were suspended in Müller-Hilton broth to produce inocula of 10^8 CFU mL^–1, determined by a spectrophotometric method. Serial dilutions of the compounds, previously dissolved in DMSO, were prepared in 10 test tubes with Müller–Hilton broth to final concentrations from 100 μg mL^–1 to 0.20 μg mL^–1 for P. aeruginosa and S. aureus. An old inoculum of each strain was added to the tubes to obtain final concentrations of 10^5 CFU. […] Tests using tetracycline as positive control and DMSO as negative control were carried out in parallel. All tests were performed in triplicate with full agreement between the results.

[2] = test system: Pseudomonas aeruginosa (ATCC 27853); assay: Minimum inhibitory concentration, broth dilution (NCCLS M7-A6), P. aeruginosa; assay type: cell-based; conditions: as printed in footnote c

Compound	d SI (selective index): ratio between MIC in murine macrophages and MIC in Staphylococcus aereus [1]	c SI (selective index): ratio between CC50 in murine macrophages and MIC in Pseudomonas aureginosa [2]
CC(=O)Oc1ccccc1C(=O)[O][Sb]([O]C(=O)c1ccccc1OC(C)=O)([c]1ccccc1)([c]1ccccc1)[c]1ccccc1 [Complex 1, Bis-(acetylsalicylato)triphenylantimony(V)]	<1	<1
Bis-(3-acetoxybenzoato)triphenylantimony(V) [Complex 2]	<1	<1
CC(=O)Oc1ccccc1C(=O)[O][Bi]([O]C(=O)c1ccccc1OC(C)=O)([c]1ccccc1)([c]1ccccc1)[c]1ccccc1 [Complex 3, Bis-(acetylsalicylato)triphenylbismuth(V)]	<1	1.6
[Cl][Sb]([Cl])([c]1ccccc1)([c]1ccccc1)[c]1ccccc1 [Complex M1, triphenylantimony(V) dichloride]	<1	<1
CC(=O)Oc1cccc(C(=O)[O][Bi]([O]C(=O)c2cccc(OC(C)=O)c2)([c]2ccccc2)([c]2ccccc2)[c]2ccccc2)c1 [Complex 4, Bis-(3-acetoxybenzoato)triphenylbismuth(V)]	<1	1.6
O=C([O-])[O-].c1cc[c]([Bi+2]([c]2ccccc2)[c]2ccccc2)cc1 [Complex M2, triphenylbismuth carbonate]	<1	<1
